Results of unrelated studies side by side (data: NIAID ChemDB).

Shared fields: growth or infection tests; species: Rhinovirus; measure: EC50

Conditions beyond the fields shown may differ between rows. ECn: concentration that inhibits the pathogen or its effect by n%.

compound	strain or isolate	cells	read by	value
COc1ccc(-c2snc(SC)c2C#N)cc1	Serotype 89 (group B)	HELA-OHIO	cytopathic effect	>12 µM
CSc1nsc(-c2ccc(OCCCOc3ccccc3)cc2)c1C#N	Serotype 42 (group A)	HELA-OHIO	cytopathic effect	>20 µM
CN(C)c1ccc(Cn2cnc3c(N(C)C)nc(C(F)(F)F)nc32)cc1	Serotype 13	M-HELA	plaque count	>8 µM
CCn1oc2cc(OCCC3CCN(c4ccc(C)nn4)CC3)ccc2c1=O	Serotype 14	MRC-5	cytopathic effect	>0.25 µg/mL
N#Cc1ccc(Cn2cnc3c(Nc4cccc(F)c4)nc(C(F)(F)F)nc32)cc1	Serotype 5	M-HELA	plaque count	190 µM
Cc1cc(Cl)ccc1Cn1cnc2c(N(C)C)nc(C(F)(F)F)nc21	Serotype 15	M-HELA	plaque count	>8 µM
Cc1ccc(N2CCC(CCOc3ccc4nc(C)oc4c3)CC2)nn1	Serotype 1A	MRC-5	cytopathic effect	0.179 µg/mL
Fc1cccc(Cn2cnc3c(Nc4cccc(F)c4)nc(C(F)(F)F)nc32)c1	Serotype 9	M-HELA	plaque count	1.4 µM
CSc1nsc(-c2ccc(OCc3ccccc3)cc2)c1C#N	Serotype 85 (group B)	HELA-OHIO	cytopathic effect	1 µM
Cc1c(-c2ccccc2)n(-c2ccc(F)cc2)c2ccc(C(C)C)cc2c1=O	TYPE 89	HELA-OHIO	cytopathic effect	0.011 µg/mL
Cc1ccc(Cn2cnc3c(N(C)C)nc(C(F)(F)F)nc32)cc1C	TYPE 1B	M-HELA	plaque count	0.17 µM
CSc1nsc(-c2ccc(O)cc2)c1C#N	Serotype 2 (group B)	HELA-OHIO	cytopathic effect	>10 µM
CSc1nsc(-c2ccc(OCCCOc3ccc(C#N)cc3)cc2)c1C#N	Serotype 59 (group B)	HELA-OHIO	cytopathic effect	>2 µM
Cc1c(-c2ccccc2)n(-c2cccc(F)c2)c2ccc(C(C)C)cc2c1=O	TYPE 2/ HGP	HELA-OHIO	cytopathic effect	0.03 µg/mL
CSc1nsc(-c2ccccc2)c1C#N	Serotype 15 (group B)	HELA-OHIO	cytopathic effect	>80 µM
CCOc1nc2ccc(OCCC3CCN(c4cc(C)cnn4)CC3)cc2o1	Serotype 2	MRC-5	cytopathic effect	0.167 µg/mL
CCOc1cc(CCCOc2c(C)cc(-c3noc(C)n3)cc2C)on1	Serotype 89	HeLa	cytopathic effect	0.003 µg/mL
CSc1nc2ccc(OCCC3CCN(c4ccc(C)nn4)CC3)cc2o1	Serotype 14	MRC-5	cytopathic effect	0.047 µg/mL
CCOC(=O)c1ccc(OCCC2CCN(c3ccc(C)nn3)CC2)cc1	Serotype 87	WI-38	cytopathic effect	>0.1 µg/mL
CCOc1nc2ccc(OCCC3CCN(c4ccc(Cl)nn4)CC3)cc2o1	Serotype 14	MRC-5	cytopathic effect	0.015 µg/mL
Cc1ccccc1Cn1cnc2c(N(C)C)nc(C(F)(F)F)nc21	Serotype 8	M-HELA	plaque count	>8 µM
CSc1nsc(-c2ccc(OCCOc3ccc([N+](=O)[O-])cc3)cc2)c1C#N	Serotype 72 (group A)	HELA-OHIO	cytopathic effect	>2 µM
Cc1cc(CCCCCOc2c(Cl)cc(C3=NCCO3)cc2Cl)on1	TYPE 32	HeLa	plaque count	0.15 µg/mL
CCSc1nc2ccc(OCCC3CCN(c4nnc(C)s4)CC3)cc2o1	Serotype 2	MRC-5	cytopathic effect	0.061 µg/mL
CN(C)c1nc(C(F)(F)F)nc2c1ncn2Cc1ccc(Br)cc1	TYPE 1B	M-HELA	plaque count	0.03 µM
CCO/N=C/c1ccc(OCCC2CCN(c3ccc(Cl)nn3)CC2)cc1	K2207 (ICAM-1 receptor group 72)	KB	neutral red	0.077 µM
CCOc1nc2ccc(OCCC3CCN(c4nnnn4C)CC3)cc2o1	Serotype 2	MRC-5	cytopathic effect	0.237 µg/mL
CCc1nc(-c2cc(C)c(OCCCc3cc(COC)no3)c(C)c2)no1	Serotype 2	HeLa	cytopathic effect	0.006 µg/mL
CSc1nsc(-c2ccc(OCCOc3ccccc3)cc2)c1C#N	Serotype 63 (group B)	HELA-OHIO	cytopathic effect	>20 µM
CCn1c2c(c(=O)c3cc(C(C)C)ccc31)Cc1ccccc1-2	TYPE 1B/B632	HELA-OHIO	cytopathic effect	0.54 µg/mL
CN(C)c1nc(C(F)(F)F)nc2c1ncn2Cc1ccc(C(F)(F)F)cc1	Serotype 1B	M-HELA	plaque count	0.11 µM
CCOC(=O)c1ccc(OCCCCOc2ccc(-c3snc(SC)c3C#N)cc2)cc1	Serotype 63 (group B)	HELA-OHIO	cytopathic effect	>2 µM
CCOc1cnc2cc(OCCC3CCN(c4ccc(C)nn4)CC3)ccc2n1	Serotype 2	MRC-5	cytopathic effect	0.012 µg/mL
Cc1cc(CCCOc2c(C)cc(-c3noc(C(F)(F)F)n3)cc2C)on1	Isolate 13	OHIO HELA-I	cytopathic effect / visual reading	0.02 µg/mL
CSc1nsc(-c2ccc(OCCCc3ccccc3)cc2)c1C#N	Serotype 42 (group A)	HELA-OHIO	cytopathic effect	>20 µM
CCCCc1nc2ccc(OCCC3CCN(c4ccc(C)nn4)CC3)cc2o1	Serotype 14	MRC-5	cytopathic effect	0.082 µg/mL
COC(=O)c1cc(CCCOc2c(C)cc(-c3noc(C)n3)cc2C)on1	Serotype 89	HeLa	cytopathic effect	0.003 µg/mL
Cc1ccc(Cn2cnc3c(N(C)C)nc(C(F)(F)F)nc32)c(C)c1	Serotype 15	M-HELA	plaque count	>8 µM

5 of the rows above, restated:

CSc1nsc(-c2ccc(OCc3ccccc3)cc2)c1C#N ; strain or isolate: Serotype 85 (group B) ; cells: HELA-OHIO ; read by: cytopathic effect ; value: 1 µM
N#Cc1ccc(Cn2cnc3c(Nc4cccc(F)c4)nc(C(F)(F)F)nc32)cc1 ; strain or isolate: Serotype 5 ; cells: M-HELA ; read by: plaque count ; value: 190 µM
CCCCc1nc2ccc(OCCC3CCN(c4ccc(C)nn4)CC3)cc2o1 ; strain or isolate: Serotype 14 ; cells: MRC-5 ; read by: cytopathic effect ; value: 0.082 µg/mL
CCn1c2c(c(=O)c3cc(C(C)C)ccc31)Cc1ccccc1-2 ; strain or isolate: TYPE 1B/B632 ; cells: HELA-OHIO ; read by: cytopathic effect ; value: 0.54 µg/mL
CSc1nsc(-c2ccc(OCCCc3ccccc3)cc2)c1C#N ; strain or isolate: Serotype 42 (group A) ; cells: HELA-OHIO ; read by: cytopathic effect ; value: >20 µM